Compound potency records, mixed from different reports. Data source: NIAID ChemDB in PubChem.

All rows: tests in culture; agent: HIV-1; endpoint: EC50

An empty or dashed field is not shown. ECn: concentration that inhibits the pathogen or its effect by n%. Rows are shuffled and stem from different studies.

smiles | setting | method | strain | cells | changes | value
CCCCCCCCCCCCCCCCOP(=O)(OC[C@H]1OC(O)[C@@H](O)[C@@H](O)[C@@H]1O)OC[C@H]1O[C@@H](n2cc(C)c(=O)[nH]c2=O)C[C@@H]1N=[N+]=[N-] | 7 d | RT activity | LAV-Bru | CEM |  | <0.2 µM
CC(C)c1c(Cc2ccccc2)n(COCCOc2ccccc2)c(=O)[nH]c1=O |  | MTT | N119 | MT-4 | Y181C | >35 µM
CCc1c(Cc2cccc(Cc3nc(SC)[nH]c(=O)c3CC)c2)nc(SC)[nH]c1=O |  | cytopathic effect / MTT | RT-K103N+Y181C NNRTI-resistant | MT-4 | RT-K103N Y181C | >100 µM
Cc1cn([C@H]2C[C@H](N=[N+]=[N-])[C@@H](COP(=O)(O)OCCO[C@H]3O[C@H](CO)[C@@H](O)[C@H](O)[C@@H]3O)O2)c(=O)[nH]c1=O | 7 d | RT activity | LAV-Bru | U-937 |  | <25 µM
CC(=O)Nc1sc(Br)cc1S(=O)(=O)c1ccc(Cl)cc1 |  | cytopathic effect / MTT | IIIB | CEM + CEM/O |  | >200 µg/mL
CN(C)c1ccc(/C=C/C(=O)C2CCC3C4CC=C5C[C@@H](O)CC[C@]5(C)C4CC[C@]23C)c(Cl)c1 |  | MTT | IIIB | MT-4 |  | >12.95 µM
COC(=O)c1ccccc1S(=O)(=O)c1ccsc1NC=O |  | cytopathic effect / MTT | IIIB | CEM + CEM/O |  | 18 µg/mL
CC(C)[C@H](NC(=O)OCc1ccccn1)C(=O)N[C@@H](Cc1ccccc1)[C@@H](O)C[C@H](Cc1ccccc1)NC(=O)OCc1cccnc1 |  | p24 | NL4-3 | MT-4 | PR-L63P | <1.5 µM
CCc1c(Cc2cccc(Cc3nc(N(C)C)[nH]c(=O)c3CC)c2)nc(N(C)C)[nH]c1=O |  | cytopathic effect / MTT | NNRTI-resistant | MT-4 | RT-Y181C | >100 µM
CCS[C@]12CS(=O)(=O)O[C@@]13[C@@H](CN2)O[C@@H](n1cc(C)c(=O)[nH]c1=O)[C@@H]3O |  |  | IIIB | CEM |  | 30 µM
NCCC(NC(=O)c1ccc(-c2ccc(C(F)(F)F)nn2)[nH]1)c1nc(CO)cs1 | pseudotyped | luciferase | HXB2 | TZM-bl |  | >12 µM
C[C@]12CCC3C(CC=C4CC(O)CC[C@@]43C)C1CCC2C(/C=C/c1ccc(Br)cc1)=N/O |  | MTT | IIIB | MT-4 |  | >10.28 µM
CCCCCO[C@]12CS(=O)(=O)O[C@@]13[C@@H](CN2)O[C@@H](n1cc(C)c(=O)[nH]c1=O)[C@@H]3O |  |  | IIIB | CEM |  | 160 µM
CCCc1c(OC2CCCC2)c2cc(C#N)ccc2[nH]c1=O |  |  |  | MT-4 |  | 0.082 µM
CC(C)(N)CC(NC(=O)c1ccc(-c2ccc(C(F)(F)F)cn2)[nH]1)c1nc(CO)cs1 | pseudotyped | luciferase | HXB2 | TZM-bl |  | 0.58 µM
Cc1cn(C2CC(n3nnc(C4CC4)c3C3(C(F)(F)F)OC(=O)Nc4ccc(Cl)cc43)C(CO)O2)c(=O)[nH]c1=O |  | luminescence | UG070 | TZM-bl |  | 8.83 µg/mL
CCc1c(Cc2cc(OC)cc(OC)c2)[nH]c(=O)[nH]c1=O |  | MTT | N119 | MT-4 | Y181C | >100 µM
Cc1cn([C@H]2C=C[C@@H](CO)O2)c(=O)[nH]c1=O |  | cytopathic effect / MTT | HXB2wt-RT | MT-4 |  | 0.52 µM
COc1cnc(-n2cnc(C)n2)c2[nH]cc(C(=O)C(=O)N3CCN(C(=O)c4ccccc4)CC3)c12 |  | p24 / ELISA | MN | MT-2 |  | 0.0148 µM
CCOCn1c(Cc2cc(OC)cc(OC)c2)c(C(C)C)c(=O)[nH]c1=O |  | MTT | N119 | MT-4 | Y181C | 28 µM
NC(N)=NCCC[C@H](N)C(=O)NC[C@@H]1OC(O[C@H]2[C@@H](O)[C@H](O[C@@H]3[C@@H](O)[C@H](NC(=O)[C@@H](N)CCCN=C(N)N)C[C@H](NC(=O)[C@@H](N)CCCN=C(N)N)[C@H]3O[C@H]3O[C@H](CNC(=O)[C@@H](N)CCCN=C(N)N)[C@@H](O)[C@H](O)[C@H]3NC(=O)[C@@H](N)CCCN=C(N)N)O[C@@H]2CO)[C@H](NC(=O)[C@@H](N)CCCN=C(N)N)[C@@H](O)[C@@H]1O |  | p24 / RT activity | IIIB | MT-2 |  | 3.7 µM
CO[C@]12CS(=O)(=O)O[C@@]13[C@@H](CN2)O[C@@H](n1cc(C)c(=O)[nH]c1=O)[C@@H]3O |  |  | IIIB | CEM |  | 35 µM
Cc1cc(C)cc(Cc2c(C(C)C)c(=O)[nH]c(=O)n2COCCOc2ccccc2)c1 |  | MTT | IIIB | MT-4 | Efavirenz-resistant (K103R + V179D + P225H) | 2.3 µM
COc1cccc(CN(C)c2cccc(-c3ccc4ccn(Cc5cccc(C(=O)O)c5)c4c3)c2)c1 |  | cell fusion / luminescence | HXB2 | TZM-bl + HL2/3 |  | 1.6 µM
C[C@]12CCC3C(CC=C4C[C@@H](O)CC[C@@]43C)C1CCC2C(=O)/C=C/c1ccc2c(c1)Cc1ccccc1-2 |  | MTT | IIIB | MT-4 |  | >7.62 µM
CC(=O)Nc1sc([N+](=O)[O-])cc1S(=O)(=O)c1ccc(Cl)cc1 |  | cytopathic effect / MTT | IIIB | CEM + CEM/O |  | >0.32 µg/mL
Cc1cn([C@@H]2O[C@@H]3CN[C@@]4(OCC(C)C)CS(=O)(=O)O[C@@]34[C@H]2O)c(=O)[nH]c1=O |  |  | IIIB | CEM |  | >250 µM
NCCC(NC(=O)c1ccc(-c2ccc(F)cn2)[nH]1)c1nc(CO)cs1 |  | luciferase | HXB2 | TZM-bl |  | >11 µM
Nc1nc2c(ncn2[C@@H]2C[C@@H](F)[C@H](CO)O2)c(=O)[nH]1 |  | cytopathic effect / MTT |  | MT-4 |  | >100 µM
CCCCO[C@]12CS(=O)(=O)O[C@@]13C(CN2)O[C@@H](n1cc(C)c(=O)[nH]c1=O)[C@@H]3O[Si](C)(C)C(C)(C)C |  |  | IIIB | CEM |  | >10 µM
COc1cc(Cc2c(C(C)C)c(=O)[nH]c(=O)n2COCCOc2ccccc2)cc(OC)c1 |  | MTT | A17 | MT-4 | K103N + Y181C | >33 µM
CCc1c(Cc2cccc(Cc3nc(SC(C)CC)[nH]c(=O)c3CC)c2)nc(SC(C)CC)[nH]c1=O |  | cytopathic effect / MTT | RT-K103N+Y181C NNRTI-resistant | MT-4 | RT-K103N Y181C | >27 µM
CCC(C)c1c(OC2CCCC2)c2cc(Cl)ccc2[nH]c1=O |  |  | Nevirapine-resistant (RT Y181C) | MT-4 | RT-Y181C | 0.353 µM
Nc1ccn([C@H]2CC[C@@H](CO)O2)c(=O)n1 |  |  | RF | CEM + CEM-SS |  | 0.039 µM
C=CC(C)(/C=C\c1ccc(O)cc1)c1ccc(O)cc1.NC(=O)NO |  | p24 | 6366 | PBMC |  | 0.00065 µM
CCc1c(Cc2cccc(Cc3nc(SC)n(C)c(=O)c3CC)c2)nc(SC)n(C)c1=O |  | cytopathic effect / MTT | RT-K103N+Y181C NNRTI-resistant | MT-4 | RT-K103N Y181C | >100 µM
CCCCCCCCCCCCCCCCOP(=O)(OCCO[C@@H]1O[C@H](CO)[C@@H](O)[C@H](O)[C@@H]1O)OC[C@H]1O[C@@H](n2cc(C)c(=O)[nH]c2=O)C[C@@H]1N=[N+]=[N-] | 22 d | RT activity | LAV-Bru | CEM |  | >1 µM
Cc1ccc(/C=C/C(=O)C2CCC3C4CC=C5C[C@@H](O)CC[C@]5(C)C4CC[C@]23C)cc1 |  | MTT | IIIB | MT-4 |  | >51.7 µM
C=CCOCn1c(Cc2cccc(Cc3[nH]c(=O)[nH]c(=O)c3CC)c2)c(CC)c(=O)[nH]c1=O |  | cytopathic effect / MTT | RT-K103N+Y181C NNRTI-resistant | MT-4 | RT-K103N Y181C | >100 µM
CCc1c(Cc2cc(OC)cc(OC)c2)[nH]c(=S)[nH]c1=O |  | MTT | IIIB | MT-4 | Efavirenz-resistant (K103R + V179D + P225H) | >100 µM
Cc1ccc(C2CC(C3CCC4C5CC=C6CC(O)CC[C@]6(C)C5CC[C@]34C)=NN2C(N)=S)cc1 |  | MTT | IIIB | MT-2 |  | >7.49 µM
CCOCn1c(Cc2cccc(Cc3[nH]c(=O)[nH]c(=O)c3CC)c2)c(CC)c(=O)[nH]c1=O |  | cytopathic effect / MTT | NNRTI-resistant | MT-4 | RT-Y181C | >100 µM
NCCC(NC(=O)c1ccc(-c2ccc(Cl)nc2)[nH]1)c1nc(CO)cs1 | pseudotyped | luciferase | HXB2 | TZM-bl |  | >11 µM
C[C@]12CCC3C(CC=C4CC(O)CC[C@@]43C)C1CCC2C1=NN(C(N)=S)C(c2ccc(Br)cc2)C1 |  | MTT | IIIB | MT-4 |  | >11.78 µM
CCCc1c(OC2CCCC2)c2cc(OC)ccc2[nH]c1=O |  |  | Nevirapine-resistant (RT Y181C) | MT-4 | RT-Y181C | >5 µM
C[C@]12CCC3C(CC=C4CC(O)CC[C@@]43C)C1CCC2C(=O)/C=C/c1ccc(/C=C/C(=O)C2CCC3CCC4C(CC=C5C[C@@H](O)CC[C@@]54C)[C@]32C)cc1 |  | MTT | IIIB | MT-4 |  | >47.75 µM
CCCc1c(SCC2CCC2)c2cc(F)ccc2[nH]c1=O |  |  | Nevirapine-resistant (RT Y181C) | MT-4 | RT-Y181C | 0.046 µM
C[C@]12CCC3C(CC=C4C[C@@H](O)CC[C@@]43C)C1CCC2C(=O)/C=C/c1cc(Br)ccc1O |  | MTT | IIIB | MT-4 |  | >12.05 µM
CCCOC12CS(=O)(=O)OC13[C@@H](CN2)O[C@@H](n1cc(C)c(=O)[nH]c1=O)[C@@H]3O |  |  | IIIB | CEM |  | >250 µM
O=C(Nc1sccc1S(=O)(=O)c1ccccc1)c1cccnc1 |  | cytopathic effect / MTT | IIIB | CEM + CEM/O |  | >1.6 µg/mL
COc1cccc(CN(C(=O)OC(C)(C)C)c2cccc(-c3ccc4ccn(Cc5cccc(C(=O)O)c5)c4c3)c2)c1 |  | entry / luminescence | IIIB | MAGI-CCR5 |  | 4.2 µM
CCCc1c(OCC2CCCCC2)c2cc(Cl)ccc2[nH]c1=O |  |  | Nevirapine-resistant (RT Y181C) | MT-4 | RT-Y181C | 0.798 µM
COc1cc(Cc2[nH]c(=S)[nH]c(=O)c2C(C)C)cc(OC)c1 |  | MTT | A17 | MT-4 | K103N + Y181C | >100 µM
CCCc1c(OC2CCCC2)c2cc(Cl)ccc2[nH]c1=O |  |  | Nevirapine-resistant (RT Y181C) | MT-4 | RT-Y181C | 1.63 µM
O=P(O)(O)OP(=O)(O)OP(=O)(O)O |  | RT activity | IIIB | H9 |  | >100 µg/mL
CCO[C@]12CS(=O)(=O)O[C@@]13C(CN2)O[C@@H](n1cc(C)c(=O)n(C)c1=O)[C@@H]3O[Si](C)(C)C(C)(C)C |  |  | IIIB | CEM |  | 3 µM

For reference, 8 entries again:

| smiles | setting | method | strain | cells | changes | value |
|---|---|---|---|---|---|---|
| CCc1c(Cc2cc(OC)cc(OC)c2)[nH]c(=S)[nH]c1=O |  | MTT | IIIB | MT-4 | Efavirenz-resistant (K103R + V179D + P225H) | >100 µM |
| CCCCCCCCCCCCCCCCOP(=O)(OCCO[C@@H]1O[C@H](CO)[C@@H](O)[C@H](O)[C@@H]1O)OC[C@H]1O[C@@H](n2cc(C)c(=O)[nH]c2=O)C[C@@H]1N=[N+]=[N-] | 22 d | RT activity | LAV-Bru | CEM |  | >1 µM |
| C[C@]12CCC3C(CC=C4C[C@@H](O)CC[C@@]43C)C1CCC2C(=O)/C=C/c1cc(Br)ccc1O |  | MTT | IIIB | MT-4 |  | >12.05 µM |
| Cc1ccc(C2CC(C3CCC4C5CC=C6CC(O)CC[C@]6(C)C5CC[C@]34C)=NN2C(N)=S)cc1 |  | MTT | IIIB | MT-2 |  | >7.49 µM |
| Nc1nc2c(ncn2[C@@H]2C[C@@H](F)[C@H](CO)O2)c(=O)[nH]1 |  | cytopathic effect / MTT |  | MT-4 |  | >100 µM |
| CCC(C)c1c(OC2CCCC2)c2cc(Cl)ccc2[nH]c1=O |  |  | Nevirapine-resistant (RT Y181C) | MT-4 | RT-Y181C | 0.353 µM |
| CCCc1c(OC2CCCC2)c2cc(OC)ccc2[nH]c1=O |  |  | Nevirapine-resistant (RT Y181C) | MT-4 | RT-Y181C | >5 µM |
| CN(C)c1ccc(/C=C/C(=O)C2CCC3C4CC=C5C[C@@H](O)CC[C@]5(C)C4CC[C@]23C)c(Cl)c1 |  | MTT | IIIB | MT-4 |  | >12.95 µM |